Target: SARS-CoV-2 Wuhan-Hu-1 Spike with six stabilizing proline substitutions (S-6P)
Assay: BLI
Details: apparent Kd of the bivalent IgG

**Q.** C143 IgG (wild-type) VL:T33N; VL:G53V was tested. Which Kd did it give?
**A.** Its Kd is 30 nM.

Reference: article PMC10869273
